Common to all, as to type: functional
Assay [1] has as its system Plasmodium berghei. Nature of the assay: Antimalarial activity against Plasmodium berghei KBG173 infected CD1 mice (Mus musculus) at 300 mg/kg/day subcutaneous dose as survival time after 3-5 days.
The test system of assay [2] is Plasmodium berghei. In words: Antimalarial activity against Plasmodium berghei KBG173 infected CD1 mice (Mus musculus) at 150 mg/kg/day subcutaneous dose as survival time after 3-5 days.
For assay [3], the system named is Plasmodium berghei. In words: Antimalarial activity against Plasmodium berghei KBG173 infected CD1 mice (Mus musculus) at 9.3 mg/kg/day subcutaneous dose as survival time after 3-5 days.
The test system of assay [4] is Plasmodium berghei. Nature of the assay: Antimalarial activity against Plasmodium berghei KBG173 infected CD1 mice (Mus musculus) at 37.5 mg/kg/day subcutaneous dose as survival time after 3-5 days.

These results are taken from ChEMBL document CHEMBL1142398, “Chemical stability of the peroxide bond enables diversified synthesis of potent tetraoxane antimalarials” (J Med Chem, 2008).

`[N-]=[N+]=NCC1CCC2(CC1)OOC1(CCCCC1)OO2`: the Survival came out at 30.6 days in assay [1], 26.4 days in assay [2], 10 days in assay [3] and 19.2 days in assay [4].
